Experimental data from US20160213647A1, “COMPOSITIONS AND METHODS FOR INHIBITING VIRAL INFECTION” (priority 2015, published 2016).
Read-outs that look alike come from different tables or passages of the source.

Columns and labels:
HIV-1 isolate A17 = conditions: A17 in PBMCs
[1] = tested on: HIV-1 isolate NL4-3 gp41 (36G) V42T, N43K; conditions: N43K in PBMCs

Compound | TI (TC50/TC50) (HIV-1 isolate 4736_4) | TI (TC50/TC50) [1] | TI (TC50/TC50) (HIV-1 isolate NL4-3) | TI (TC50/TC50) (HIV-1 isolate MDR807) | other results
NCC(=O)Nc1ccc(-n2nc(C(F)(F)F)cc2-c2ccc3c(ccc4ccccc43)c2)cc1 [AR-12, 2-amino-N-(4-(5-(phenanthren-2-yl)-3-(trifluoromethyl)-1H-pyrazol-1-yl)phenyl)acetamide] | 7.26 | 5.45 |  |  | TI (TC50/TC50) (HIV-1 isolate NL4-3; NL4-3 in PBMCs): 7.39; TI (TC50/TC50) (HIV-1 isolate MDR769): 6.53; TI (TC50/TC50) (HIV-1 isolate MDR807; MDR807 in PBMCs): 6.12; TI (TC50/TC50) (HIV-1 isolate A17): 6.05; TI (TC50/TC50) (HIV-1 isolate 1022-48): 11.3
CC(C)c1nc(CN(C)C(=O)N[C@H](C(=O)N[C@@H](Cc2ccccc2)C[C@H](O)[C@H](Cc2ccccc2)NC(=O)OCc2cncs2)C(C)C)cs1 [Ritonavir, ritonavir] |  |  | >220 | >7.81 | 
Cc1cn([C@H]2C[C@H](N=[N+]=[N-])[C@@H](CO)O2)c(=O)[nH]c1=O [AZT, azidothymidine] | >389 | >90.1 | >100 | >6.17 | TI (TC50/TC50) (HIV-1 isolate A17): >86.0
CC(C)Nc1cccnc1N1CCN(C(=O)c2cc3cc(NS(C)(=O)=O)ccc3[nH]2)CC1 [Delavirdine] |  |  | >65.5 |  | 
Cc1ccnc2c1NC(=O)c1cccnc1N2C1CC1 [Nevirapine] |  |  | >133 |  | TI (TC50/TC50) (HIV-1 isolate 1022-48): 142
enfuvirtide |  | >3.10 | >15.0 |  | 
COc1cc2c(cc1Cc1cccc(Cl)c1F)c(=O)c(C(=O)O)cn2[C@H](CO)C(C)C [Elvitegravir] | >12.2 |  | >1,935 |  | 
Cc1nnc(C(=O)NC(C)(C)c2nc(C(=O)NCc3ccc(F)cc3)c(O)c(=O)n2C)o1 [Raltegravir, raltegravir] | >1.34 |  | >77.0 | >219 | TI (TC50/TC50) (HIV-1 isolate MDR769): 27.4
